Assay results published in publication PMC3777863.

Legend:
[1] = molecular target: BG505 SOSIP.664 gp140 trimer (HIV-1 (subtype A, BG505)); assay: native gel or EMSA
[2] = molecular target: BG505 SOSIP.664 gp140 trimer (HIV-1 (subtype A, BG505)); assay: negative stain EM
[3] = molecular target: BG505 SOSIP.664 gp140 trimer (HIV-1 (subtype A, BG505)); assay: SEC

Measured: stoichiometry N

BG505 SOSIP.664 gp140 trimer (complex)
3: all assays above
